# Source: PMC3334918, “Mutagenesis and Functional Studies with Succinate Dehydrogenase Inhibitors in the Wheat Pathogen Mycosphaerella graminicola” (PLoS ONE, 2012)
# Assays:
# Assay in all cases: in vivo sensitivity, liquid culture growth (AE media)
# Format in all cases: cell-based, Mycosphaerella graminicola
# [1] = tested on: M. graminicola strain Flu1 (SDHC_S83G); conditions: C_S83G, ratio IC50mutant/IC50WT
# Procedure: (§1) To explore the sensitivity profiles conferred by amino acid substitutions at the cellular and mitochondrial level, we determined sensitivity towards 4 different compounds for 26 of the identified substitution types both in vivo using liquid culture growth (AE media) and in vitro using purified mitochondria and the succinate: Q0/DCPIP activity test (Table 3). […] Resistance factors (RF) were determined as the ratio IC50mutant/IC50WT. […] Qp site mutations are well known to influence SDH enzyme activity and stability upon catalysis, [13], [38], [41].
# (§2) Conidial cells were collected from 4 day old V8 agar plates (cultured at 18°C in the dark) using liquid AE and a cell spreader. Cell density was determined and cells re-suspended to a concentration of 5×10^5 cells ml^−1 in AE media. Sterile 96 wells microtiter plates with lids (Costar) were inoculated with 198 µl of this cell suspension (10^5 cells per well) and 2 µl of inhibitor (100× in DMSO). Final inhibitor concentrations were between 0.95 nM and 1 mM with uniform 4× dilution factor steps (11 inhibitor concentrations+1 DMSO control). Plates were incubated for 6 days at 19°C in the dark before cells were re-suspended and measured for growth (OD600 nm). IC50 values were determined by non linear curve fitting on the basis of measured OD values versus log inhibitor concentrations (GraphPad Prism 5.0 software).
# [2] = tested on: M. graminicola strain Cbx12 (SDHC_L85P); conditions: C_L85P, ratio IC50mutant/IC50WT
# Procedure: as §1, §2
# [3] = tested on: M. graminicola strain Izm1 (SDHC_H152R); conditions: C_H152R, ratio IC50mutant/IC50WT
# Procedure: as §1, §2
# [4] = tested on: M. graminicola strain Cbx56 (SDHB_R265P); conditions: B_R265P, ratio IC50mutant/IC50WT
# Procedure: as §1, §2
# [5] = tested on: M. graminicola strain Bos59 (SDHB_H267Q); conditions: B_H267Q, ratio IC50mutant/IC50WT
# Procedure: as §1, §2
# [6] = tested on: M. graminicola strain Cbx67 (SDHD_D129G); conditions: D_D129G, ratio IC50mutant/IC50WT
# Procedure: as §1, §2
# [7] = tested on: M. graminicola strain Flu7 (SDHB_N225I); conditions: B_N225I, ratio IC50mutant/IC50WT
# Procedure: as §1, §2
# [8] = tested on: M. graminicola strain Flu4 (SDHC_A84V); conditions: C_A84V, ratio IC50mutant/IC50WT
# Procedure: as §1, §2
# [9] = tested on: M. graminicola strain Flu21 (SDHC_A84I); conditions: C_A84I, ratio IC50mutant/IC50WT
# Procedure: as §1, §2
# [10] = tested on: M. graminicola strain Flu75 (SDHB_P220L); conditions: B_P220L, ratio IC50mutant/IC50WT
# Procedure: as §1, §2
# [11] = tested on: M. graminicola strain Cbx106 (SDHB_N225H); conditions: B_N225H, ratio IC50mutant/IC50WT
# Procedure: as §1, §2
# [12] = tested on: M. graminicola strain Cbx96 (SDHB_H267N); conditions: B_H267N, ratio IC50mutant/IC50WT
# Procedure: as §1, §2
# [13] = tested on: M. graminicola strain Flu29 (SDHD_D129T); conditions: D_D129T, ratio IC50mutant/IC50WT
# Procedure: as §1, §2
# [14] = tested on: M. graminicola strain Flu9 (SDHC_R87C); conditions: C_R87C, ratio IC50mutant/IC50WT
# Procedure: as §1, §2
# [15] = tested on: M. graminicola strain Cbx22 (SDHD_D129E); conditions: D_D129E, ratio IC50mutant/IC50WT
# Procedure: as §1, §2
# [16] = tested on: M. graminicola strain Flu41 (SDHB_S218F); conditions: B_S218F, ratio IC50mutant/IC50WT
# Procedure: as §1, §2
# [17] = tested on: M. graminicola strain Cbx28 (SDHB_H267Y); conditions: B_H267Y, ratio IC50mutant/IC50WT
# Procedure: as §1, §2
# [18] = tested on: M. graminicola strain Izm7 (SDHC_N86K); conditions: C_N86K, ratio IC50mutant/IC50WT
# Procedure: as §1, §2
# [19] = tested on: M. graminicola strain Cbx76 (SDHC_H145R); conditions: C_H145R, ratio IC50mutant/IC50WT
# Procedure: as §1, §2
# [20] = tested on: M. graminicola strain Ol50 (SDHC_V88D); conditions: C_V88D, ratio IC50mutant/IC50WT
# Procedure: as §1, §2
# [21] = tested on: M. graminicola strain Cbx101 (SDHD_D129S); conditions: D_D129S, ratio IC50mutant/IC50WT
# Procedure: as §1, §2
# [22] = tested on: M. graminicola strain Flu33 (SDHB_N271K); conditions: B_N271K, ratio IC50mutant/IC50WT
# Procedure: as §1, §2
# [23] = tested on: M. graminicola strain Flu110 (SDHB_P220T); conditions: B_P220T, ratio IC50mutant/IC50WT
# Procedure: as §1, §2
# [24] = tested on: M. graminicola strain Cbx1 (SDHB_I269V); conditions: B_I269V, ratio IC50mutant/IC50WT
# Procedure: as §1, §2
# [25] = tested on: M. graminicola strain Cbx29 (SDHB_H267L); conditions: B_H267L, ratio IC50mutant/IC50WT
# Procedure: as §1, §2
# [26] = tested on: M. graminicola strain Bos64 (SDHC_T79I); conditions: C_T79I, ratio IC50mutant/IC50WT
# Procedure: as §1, §2
SMILES,Resistance Factors (RFs) in vivo [1],Resistance Factors (RFs) in vivo [2],Resistance Factors (RFs) in vivo [3],Resistance Factors (RFs) in vivo [4],Resistance Factors (RFs) in vivo [5],Resistance Factors (RFs) in vivo [6],Resistance Factors (RFs) in vivo [7],Resistance Factors (RFs) in vivo [8],Resistance Factors (RFs) in vivo [9],Resistance Factors (RFs) in vivo [10],Resistance Factors (RFs) in vivo [11],Resistance Factors (RFs) in vivo [12],Resistance Factors (RFs) in vivo [13],Resistance Factors (RFs) in vivo [14],Resistance Factors (RFs) in vivo [15],Resistance Factors (RFs) in vivo [16],Resistance Factors (RFs) in vivo [17],Resistance Factors (RFs) in vivo [18],Resistance Factors (RFs) in vivo [19],Resistance Factors (RFs) in vivo [20],other results
O=C(Nc1ccccc1-c1ccc(Cl)cc1)c1cccnc1Cl [Boscalid],564.3,4.1,30.2,13.3,21.7,37.1,12.9,2.6,2.9,2.2,12.2,3.4,78.3,18.8,42.8,6.5,305.6,78.1,17.3,5.0,Resistance Factors (RFs) in vivo [21]: 15.9; Resistance Factors (RFs) in vivo [22]: 3.4; Resistance Factors (RFs) in vivo [23]: 6.1; Resistance Factors (RFs) in vivo [24]: 4.2; Resistance Factors (RFs) in vivo [25]: 258.0; Resistance Factors (RFs) in vivo [26]: 18.9
CC1=C(C(=O)Nc2ccccc2)SCCO1 [Carboxin],10.7,11.5,13.2,20.1,4.4,17.2,10.2,0.8,1.2,1.4,20.2,12.6,60.4,3.2,35.9,5.3,14.1,23.8,4.4,4.4,Resistance Factors (RFs) in vivo [21]: 39.7; Resistance Factors (RFs) in vivo [22]: 2.6; Resistance Factors (RFs) in vivo [23]: 0.1; Resistance Factors (RFs) in vivo [24]: 12.4; Resistance Factors (RFs) in vivo [25]: 14.5; Resistance Factors (RFs) in vivo [26]: 5.2
O=C(NCCc1ncc(C(F)(F)F)cc1Cl)c1ccccc1C(F)(F)F [Fluopyram],126.8,5.8,11.5,2.8,0.9,5.6,17.5,19.0,31.9,5,8.0,9.9,11.5,6.1,1.3,18.0,0.6,49.9,2.0,5.9,Resistance Factors (RFs) in vivo [21]: 1.9; Resistance Factors (RFs) in vivo [22]: 10.0; Resistance Factors (RFs) in vivo [23]: 11.5; Resistance Factors (RFs) in vivo [24]: 10.0; Resistance Factors (RFs) in vivo [25]: 22.4; Resistance Factors (RFs) in vivo [26]: 2.2
